# Data as given in US20240389602A1, “LIPOSOME FORMULATIONS FOR PESTICIDE DELIVERY AND METHODS FOR PRODUCING AND USING THE SAME” (published 2024).
# Legend:
# [1] = test system: fourth instar CEW; test: CEW injection assay: Hybrid+2
# [2] = test system: adult houseflies; test: Housefly injection assay: Hybrid+2; conditions: injection at dorsal thorax, assessed after 24-hours
# [3] = test system: second instar CEW; test: Foliar spray bioassay: second instar CEW
# [4] = test system: Popillia japonica (Japanese beetle); test: Japanese beetle foliar spray bioassay: Hybrid+2; conditions: adult Japanese beetle, day 4, 8 mg/mL Hybrid+2 spray solution, no surfactant
# [5] = test system: Helicoverpa zea (Corn earworm or CEW); test: Corn earworm (CEW) foliar spray bioassay, first instar: Hybrid+2; conditions: no surfactant
# [6] = day 4, 2 mg/mL Hybrid+2 spray solution
# [7] = day 4, 6 mg/mL Hybrid+2 spray solution
# [8] = day 4, 18 mg/mL Hybrid+2 spray solution
substance,measurement,setting,value
U+2-ACTX-Hv1a,dead CEW after injection,"[1]; injection 1146-18344 pmol/g, after 24-hours",no dead CEW
same,KD50,"[1]; injection, assessed after 24-hours",6506 pmol/g
same,LD50,[2],137 pmol/g
same,mortality,"[3]; day 4, 1 ppt Hybrid+2, no surfactant",zero
same,percent of leaf eaten,"[3]; day 4, 1 ppt of Hybrid+2, no surfactant",67%
same,mortality,"[3]; day 4, 3 ppt Hybrid+2, no surfactant",zero
same,mortality,"[3]; day 4, 9 ppt Hybrid+2, no surfactant",zero
same,mortality,[4],16.7%
same,leaf defoliation,[5]; [6],29.8%
same,proportion mortality,[5]; [6],0.06
same,leaf defoliation,[5]; [7],31.6%
same,proportion mortality,[5]; [7],0.10
same,leaf defoliation,[5]; [8],22.8%
same,proportion mortality,[5]; [8],0.25
